A mixed list of measured activities; the numbers were collected in NIAID ChemDB.

All rows: enzyme or target tests; species: HIV-1; protein: Reverse transcriptase; endpoint: IC50

ICn: concentration for n% inhibition. Lines come from different laboratories, so protocols vary. An empty or dashed field is not shown.

SMILES	strain or isolate	changes	value
CNc1ccccc1C(=O)NCCC[Si](C)(C)O[Si](C)(C)CCCNC(=O)c1ccccc1NC			>2000 µM
CN1C(=O)c2cc(-n3ccnc3)nnc2N(C2CC2)c2ccccc21			>330 µM
C[Si](C)(CCCn1ccc2ccccc21)O[Si](C)(C)CCCn1ccc2ccccc21			>2000 µM
CC(C)=CCOc1cc(NC(=S)c2ccoc2C)ccc1Cl		RT-L74V	2 µM
O=C(COCC(=O)Nc1ccc(Br)cc1C(=O)O)Nc1ccc(Br)cc1C(=O)O			>100 µg/mL
C=CCOc1ccc2c(c1OC(C)=O)C(=O)c1ccccc1C2=O		Y181C	>100 µM
CC(C)=CCOc1cc(NC(=S)c2ccsc2C)ccc1Cl		RT-K103N	10 µM
C#CCOc1ccc2c(c1OC(C)=O)C(=O)c1ccccc1C2=O			>100 µM
CCn1c(=O)c(C)cn([C@@H]2O[C@H](CO[Si](C)(C)C(C)(C)C)C3(OS(=O)(=O)C=C3N)[C@H]2O[Si](C)(C)C(C)(C)C)c1=O			1.1 µM
C[Si](C)(CCCn1cnc2c(N)ncnc21)O[Si](C)(C)CCCn1cnc2c(N)ncnc21			>2000 µM
CC(=O)Oc1c(OCC(=O)c2ccc(Br)cc2)ccc2c1C(=O)c1ccccc1C2=O		Y181C	>100 µM
CCN1c2ccc(C)cc2N(C)C(=O)c2ccnnc21			<330 µM
CCn1c(C)c(C(=O)OC)c(C(=O)OC)c1Cc1ccccc1	IIIB		1.1 µM
CCN1C(=O)c2ccnnc2N(CC)c2ccc(C)cc21			<330 µM
O=C(CCCCC(=O)Nc1ccccc1C(=O)O)Nc1ccc(Br)cc1			>100 µg/mL
CC(=O)COc1ccc2c(c1OCC(C)=O)C(=O)c1ccccc1C2=O		Y181C	>100 µM
CCCN1c2ccc(C)cc2N(CC)C(=O)c2cc(Cl)nnc21			>330 µM
O=C(Nc1ccc(Br)cc1C(=O)O)c1cccc(C(=O)Nc2ccc(Br)cc2C(=O)O)n1			>100 µg/mL
CCCN1C(=O)c2cc(Cl)nnc2N(CCC)c2ccccc21			<330 µM
C[Si](C)(CCCNC(=O)c1cc(Cl)ccc1N)O[Si](C)(C)CCCNC(=O)c1cc(Cl)ccc1N			20 µM
CCN1C(=O)c2ccnnc2N(C2CC2)c2ccc(C)cc21			~330 µM
O=C(O)CP(=O)(O)O			>500 µM
CCCN1c2ccc(C)cc2N(CC)C(=O)c2ccnnc21			<330 µM
[N-]=[N+]=N[C@H]1C[C@H](n2ccc(=O)[nH]c2=O)O[C@@H]1COP(=O)(O)OP(=O)(O)OP(=O)(O)O			0.0098 µM

The last 3 rows once more:

SMILES	strain or isolate	changes	value
O=C(O)CP(=O)(O)O			>500 µM
CCCN1c2ccc(C)cc2N(CC)C(=O)c2ccnnc21			<330 µM
[N-]=[N+]=N[C@H]1C[C@H](n2ccc(=O)[nH]c2=O)O[C@@H]1COP(=O)(O)OP(=O)(O)OP(=O)(O)O			0.0098 µM